Laboratory results: paper PMC3321071 (Bioorganic & medicinal chemistry letters, 2012)

Target: gp41 NHR hydrophobic pocket (receptor Fe(env2.0)3) (Human immunodeficiency virus type 1 group M subtype B, UniProt P04578)
Conditions: binding assay, inhibition of CHR peptide binding

Row | Substance | Ki [nM]
1 | H2N-Asn-[Trp]-Trp-OH | 800
2 | H2N-Asp-[Trp]-Trp-OH | 1300
